Results of unrelated studies side by side (data: NIAID ChemDB).

Shared fields: tests on isolated targets; organism: Herpes simplex virus 1; target: DNA polymerase

An empty or dashed field is not shown. Inhibition is in % at the dose shown (toxicity tests: loss of growth or viability). Rows are shuffled and stem from different studies. ICn is the concentration giving n% inhibition.

compound | tested at | read-out | value
O=C(O)C(Cl)(Br)P(=O)(O)O | 100 µM | inhibition | 0%
COP(=O)(O)C(=O)O | - | IC50 | >35 µM
CCCOC(=O)CP(=O)(O)O | - | IC50 | 0.16 µg/mL
O=C(O)C(O)P(=O)(O)O | - | IC50 | 2 µM
O=P(O)(O)C(F)(F)P(=O)(O)O | - | IC50 | >100 µM
CC(O)(P(=O)(O)O)P(=O)(O)O | - | IC50 | >500 µM
O=C(CP(=O)(O)O)OCc1ccccc1 | - | IC50 | 40 µg/mL
O=C(O)C(Cl)P(=O)(O)O | 100 µM | inhibition | 96%
O=C(Oc1ccccc1)P(=O)(O)Oc1ccccc1 | - | IC50 | >35 µM
O=C(O)C(F)(Br)P(=O)(O)O | 100 µM | inhibition | 71%
O=C(O)CP(=O)(O)O | - | IC50 | 0.22 µg/mL
COC(=O)[C@@H]1[C@H](O)[C@H](C)C(O)[C@H](C)/C=C\C=C(/C)C(=O)Nc2c(C)c(OC(C)=O)c3c(c2O)C(=O)C(C)=C2OCOC(=C23)/C(C)=C/[C@@](C)(O)[C@H](O)[C@@H](C)[C@H]1OC(C)=O | - | IC50 | 110 µM
CCCCCCOP(=O)(O)CC(=O)O | - | IC50 | ~166 µg/mL
O=C(O)C(Br)(Br)P(=O)(O)O | 100 µM | inhibition | 4.5%
O=C(P(=O)(O)O)P(=O)(O)O | - | IC50 | 10 µM